Measured values from several laboratories, pooled; numbers as filed in NIAID ChemDB.

Shared fields: cytotoxicity tests; endpoint: CC50

CCn is the concentration with n% toxicity to the cells. a–b is a range or a potency band. Rows are shuffled and stem from different studies. Blank or dashed fields: not listed here.

SMILES	read by	cells	setting	result
Cc1cn([C@H]2C[C@H](N=[N+]=[N-])[C@@H](CO)O2)c(=O)[nH]c1=O	MTT	MOLT-4/8(r)AZT(250)		>2500 µM
C=C(C)/C=C/[C@]12C[C@H](C)C3CC[C@](C)(C#N)[C@@H](CC[C@H]1C)[C@@H]32		Mammalian KB cells		19 µg/mL
Nc1nc(=O)n([C@H]2O[C@@H](CO)C[C@H]2F)cc1Cl		PBM		>100 µM
CC1CCCN(C(=S)S)C1.CC1CCCNC1		VERO		8.9 µg/mL
O=c1[nH]c(=O)n([C@H]2O[C@@H](CO)C[C@H]2F)cc1Cl		PBM		>100 µM
Nc1ncnc2c1ncn2[C@@H]1C=C[C@@H](O)[C@H]1O		MA-104		>100 µg/mL
Oc1cc(O)c2c(c1)O[C@H](c1ccc(O)c(O)c1)[C@H](O)[C@H]2c1c(O)cc(O)c2c1O[C@H](c1ccc(O)c(O)c1)[C@H](O)C2		Huh-7/3-1		>25 µg/mL
Cc1cc(C)nc(NC(=S)NC(=O)c2cccnc2Cl)n1	MTS	MDCK		>300 µM
Nc1nc(N)c2ncn(C[C@@H](CO)OCP(=O)(O)O)c2n1		HepG2 2.2.15		>100 µM
Cc1cn([C@H]2C[C@H](N=[N+]=[N-])[C@@H](CO)O2)c(=O)[nH]c1=O		PBM		>100 µM
CCOc1cc(OCC)nc(NC(=S)NC(=O)c2ccc(Cl)nc2)n1	MTS	MDCK		>300 µM
C=C(C)/C=C/[C@]12C[C@H](C)C3CC[C@](C)(N)[C@@H](CC[C@H]1C)[C@@H]32		Vero cells		>128 µg/mL
NC(=O)c1[nH]nc([C@@H]2O[C@H](CO)[C@@H](O)[C@H]2O)c1O		HeLa		100 µg/mL
N=C1N(/N=C/c2ccccn2)C(=Nc2ccccc2)C(=S)N1c1ccccc1		VERO		9 µg/mL
COC(=O)N[C@H](C(=O)N[C@@H](Cc1ccccc1)[C@@H](O)CN(Cc1ccc(-c2ccccn2)cc1)NC(=O)[C@@H](NC(=O)OC)C(C)(C)C)C(C)(C)C	MTT	KG-1-C		>100 µM
CS(=O)(=O)Nc1ccc2c(c1)S(=O)(=O)N/C(=c1\c(=O)c3cccn3n(Cc3ccc(F)c(Cl)c3)c1=O)N2		HCV Huh-7/C24		>1 µM
O=Nc1c(-c2c(O)[nH]c3ccccc23)[nH]c2ccccc12	MTT	MDM		>4 µM
Nc1ccn([C@H]2CC[C@@H](CO)O2)c(=O)n1		DU145		5 µM
Cn1c(=O)c2c(ncn2C)n(C)c1=O		HeLa		50–100 µg/mL
CC(C)(C)NC(=O)NC(=S)NC(=O)COc1ccc(Cl)cc1Cl	MTS	MDCK		>300 µM
CC(=O)OC(C1CC(C)C(=O)O1)C(C)C1C2C3(O)OC4(CCC12C)C(=CCC1C(C)(C)OC2CC(=O)OC21C4O)C3=O	MTT	HL-60		2.44 µg/mL
OCC(O)COCCCCCCCCCCCC1C=CCC1		VERO		10.85 µg/mL
CC[C@H](C)[C@H](N)C(=O)O[C@H]1C[C@H](n2cc(/C=C/Br)c(=O)[nH]c2=O)O[C@@H]1COP1(=O)OCc2cccc(C)c2O1		HELF		54.4 µg/mL
O=S(=O)(Nc1nccs1)c1ccc(N=Cc2cn(Cc3ccccc3)c3ccccc23)cc1		VERO		>10 µg/mL
CC(C)CCn1c(=O)/c(=C2\Nc3ccc(NS(C)(=O)=O)cc3S(=O)(=O)N2)c(=O)c2cc(F)cn21		HCV Huh-7/C24		>1 µM
COc1ccc(/C=C(\C#N)c2nc3ccccc3[nH]2)cc1O	MTS	293T		>50 µM
CCN(CCO)CCNc1ccc(C)c2sc3ccccc3c(=O)c12		VERO		4.4 µg/mL
O=c1ccn([C@@H]2O[C@@H](CO)C[C@H]2F)c(=O)[nH]1		PBM		>100 µM
CC(C)CC[C@@]1(C)C(=O)C(C2=NS(=O)(=O)c3cc(NS(C)(=O)=O)ccc3N2)=C(O)c2ccccc21		RFP-NLS-IPS		16.5 µM
Cc1cc2c(C(C)C)c(O)c(O)c(C=O)c2c(O)c1-c1c(C)cc2c(C(C)C)c(O)c(O)c(C=O)c2c1O		HeLa		100 µM
Oc1c(CN2CCCC2)cc(Nc2cc(/C=C/c3ccc(Cl)cc3)nc(/C=C/c3ccc(Cl)cc3)n2)cc1CN1CCCC1		VERO		0.62 µg/mL
CCOc1cc(Cl)nc(NC(=S)NC(=O)c2ccc(-c3ccccc3Cl)o2)n1	MTS	MDCK		>300 µM
CNc1ncnc2c1ncn2[C@@H]1O[C@@H](CO)C[C@H]1F		PBM		>100 µM
OC(c1cc(-c2ccccc2)nc2cc(Cl)ccc12)C1CCCCN1		VERO		1.5 µg/mL
C[C@H]1c2ccoc2C[C@H]2[C@H]1[C@@H](O)[C@@H](OC(=O)/C=C/c1ccccc1)[C@@]1(O)C(C)(C)CCC[C@]21C		BC		1.4 µg/mL
CCCCc1c(C#N)c(=O)n2c(N)c(C(=O)OCC)cnc2c1SC		VERO		0.05 µg/mL
C[C@H]1c2ccoc2C[C@H]2[C@H]1[C@@H](O)[C@@H](OC(=O)c1ccccc1)[C@@]1(O)C(C)(C)CCC[C@]21C		BC		3.6 µg/mL
Cc1cn([C@H]2C[C@H](N=[N+]=[N-])[C@@H](COP(=O)(OCCSC(=O)C(C)C)OCCSC(=O)C(C)C)O2)c(=O)[nH]c1=O	MTT	MOLT-4/8		48.5 µM
O=c1cc(-c2ccc(Oc3c(O)cc4oc(-c5ccc(O)cc5)cc(=O)c4c3O)cc2)oc2cc(O)cc(O)c12	neutral red	MDCK		2 µg/mL
COc1cc(CCOC(=O)CCC(=O)CO)cc(O)c1OC	MTT	HL-60		3.1 µM
COc1cc(Cl)nc2nc(=NC(=O)c3ccc(Cl)nc3)sn12	MTS	MDCK		>300 µM
C[C@@]1(O)[C@H](O)[C@@H](CO)O[C@H]1n1ccc(N)nc1=O		RFP-NLS-IPS		>300 µM
CCOC(=O)C(=O)N=Nc1nc2c(O)c3ccccc3c(O)c2s1		VERO		9.8 µg/mL
Nc1nc2c(ncn2[C@H]2CO[C@@H](CO)O2)c(=O)[nH]1		CBMC		>100 µM
Cc1cc(C)nc(NC(=S)NC(=O)c2ccc(Cl)cc2F)n1	MTS	MDCK		>300 µM
Nc1nc(N)c2ncn([C@H]3CO[C@@H](CO)O3)c2n1		DU145		>500 µM
C=C(C)C1CC2=C(O1)C(=O)c1ccccc1C2=O		VERO		0.61 µg/mL
N[C@H]1[C@H](O)[C@@H](O)[C@@H](O[C@H]2O[C@H](CO)[C@@H](O)[C@H](O)[C@H]2O)O[C@@H]1CO		HeLa		>400 µg/mL
O=c1cc(-c2ccc(O)c(-c3c(O)cc(O)c4c(=O)cc(-c5ccc(O)cc5)oc34)c2)oc2cc(O)cc(O)c12	visual reading	MA-104		~56 µg/mL
CO[C@H]1C[C@H](O[C@H]2[C@@H](C)[C@@H](O[C@@H]3O[C@@H](C)C[C@H](N(C)C)[C@H]3O)[C@H](C)C[C@@]3(CO3)C(=O)[C@H](C)[C@H](O)[C@@H](C)[C@H](C)OC(=O)[C@H]2C)O[C@@H](C)[C@@H]1O		HeLa		200 µg/mL
C[C@]1(/C=C/Cl)C[C@](Cl)(CBr)[C@@H](Br)C[C@H]1Cl		Lul		12.9 µg/mL
C/C(=N\OCc1ccc(F)cc1)c1c(C)cc(=O)n(O)c1O	MTS	PHH	3 d	>100 µM
Cc1cc(C)c2c(c1)COP(=O)(OC[C@H]1O[C@@H](n3cc(/C=C/Br)c(=O)[nH]c3=O)C[C@@H]1O)O2		HELF		96 µg/mL
Nc1nc2c(ncn2CCOCP(=O)(O)O)c(=O)[nH]1		F-PBMC		0.23 µM
COc1ccc(CC(N=Cc2ccc(O)cc2)C(=O)N[C@H]2[C@@H](O)[C@H](n3cnc4c(N(C)C)ncnc43)O[C@@H]2CO)cc1		VERO		1.7 µg/mL
CN(C)[C@@H]1C(=O)C(C(N)=O)=C(O)[C@@]2(O)C(=O)C3=C(O)c4c(O)cccc4[C@@](C)(O)[C@H]3[C@H](O)[C@@H]12		HeLa		100 µM
O=C(O)c1cccc2nc3ccccc3nc12		VERO		>5 µg/mL
Nc1nc2c(ncn2C[C@@H](CO)OCP(=O)(O)O)c(=O)[nH]1		HB611		>100 µM
O=C(CO)CCC(=O)OCCc1ccc2c(c1)OCO2	MTT	MDA-MB-231		6.92 µM
Cc1cn([C@H]2C[C@H](N=[N+]=[N-])[C@@H](CO)O2)c(=O)[nH]c1=O		DU145		>10 µM
CC(=O)OCc1cc(=O)n(C)c2c3c4c(cc12)c(C)cc(=O)n4CO3		VERO		1.7 µg/mL
Nc1nc(=O)n(CC(CO)OCP(=O)(O)O)cc1-c1ccccc1		HB611		>200 µM
O=C(N/N=C/c1ccc(Cl)c(Cl)c1)c1ccncc1		VERO		>62.5 µg/mL
Nc1nccc2c1ncn2[C@@H]1C[C@H](CO)[C@@H](O)[C@H]1O		PRK		17 µg/mL
Nc1nc(N)c2ncn(CCOCP(=O)(O)O)c2n1		HB611		122 µM
OCCc1ccc(O)c(O[C@@H]2O[C@H](CO)[C@@H](O)[C@H](O)[C@H]2O)c1	MTT	HL-60		5.59 µM
C=C(COCP(=O)(O)O)Cn1cnc2c(=O)[nH]c(N)nc21		CrFK		>500 µM
CCCCNC(=S)NNC(=O)c1ccncc1		VERO		>62.5 µg/mL
Nc1ccn(CC(CF)OCP(=O)(O)O)c(=O)n1		HB611		>200 µM
Cc1cccc2c1OP(=O)(OC[C@H]1O[C@@H](n3cc(/C=C/Br)c(=O)[nH]c3=O)C[C@@H]1OC(=O)[C@H](N)C(C)C)OC2		HELF		>128 µg/mL
CCOC(=O)C(NC(=O)c1cccc(Cl)c1)(N1CCN(c2cc3c(cc2F)c(=O)c(C(=O)O)cn3C2CC2)CC1)C(F)(F)F		VERO		>10 µg/mL
C[C@@H]1O[C@@H](O[C@@H]2[C@@H](O)[C@H](OCCc3ccc(O)c(O)c3)O[C@H](CO)[C@H]2OC(=O)/C=C/c2ccc(O)c(O)c2)[C@H](O)[C@H](O)[C@H]1O	MTT	MDA-MB-231		5.56 µM
CO[C@H]1/C=C/O[C@@]2(C)Oc3c(C)c(O)c4c(c3C2=O)C(=O)C(CO)=C(NC(=O)/C(C)=C\C=C\[C@H](C)[C@H](O)[C@@H](C)[C@@H](O)[C@@H](C)[C@H](OC(C)=O)[C@@H]1C)C4=O		VERO		>62.5 µg/mL
O=c1[nH]c(=O)n(C[C@@H](CO)OCP(=O)(O)O)cc1F		HB611		>200 µM
COC(=O)[C@H](C)NP(=O)(OC[C@@H]1C[C@]12C[C@@H]2n1cnc2c(N)ncnc21)Oc1ccccc1		BSC-1		70 µM
CCOc1cc(OCC)nc(NC(=S)NC(=O)c2ccc(-c3ccccc3Cl)o2)n1	MTS	MDCK		>300 µM
CC[C@H]1OC(=O)[C@H](C)[C@@H](OC2CC(C)(OC)C(O)C(C)O2)C(C)[C@@H](OC2OC(C)CC(N(C)C)C2O)[C@](C)(O)C[C@@H](C)C(=O)[C@H](C)[C@@H](O)[C@H]1C		HeLa		>200 µg/mL
CC(C)CN(C[C@@H](O)[C@H](Cc1ccc(F)cc1)NC(=O)O[C@H]1CCO[C@H]2OCC[C@H]21)S(=O)(=O)c1ccc2nc(NC(C)C)sc2c1	MTT	TM-31		>100 µM
O=c1[nH]cnc2c1ncn2[C@H]1CC[C@@H](CO)O1	MTT	MOLT-4/8		1937 µM
Nc1nc(=O)n([C@H]2O[C@@H](CO)C[C@H]2F)cc1I		PBM		>100 µM
Cc1ccc2nc(-c3cccc([N+](=O)[O-])c3)c(N=O)n2c1		VERO		3.27 µg/mL
CC(C)(C)c1cccc2c1OP(=O)(OC[C@H]1O[C@@H](n3cc(/C=C/Br)c(=O)[nH]c3=O)C[C@@H]1O)OC2		HELF		63.3 µg/mL
CNc1ncnc2c1ncn2[C@H]1O[C@@H](CO)C[C@H]1F		PBM		>100 µM
CCOc1cc(OCC)nc(NC(=S)NC(=O)c2cccnc2Cl)n1	MTS	MDCK		>300 µM
O=c1/c(=C2/Nc3ccc(C4CCCS4(=O)=O)cc3S(=O)(=O)N2)c(=O)n(Cc2ccc(F)cc2)n2cccc12		HCV Huh-7/C24		>33 µM
O=c1[nH]c(=O)n([C@H]2C[C@H](O)[C@@H](COP3(=O)OCc4c(Cl)cccc4O3)O2)cc1/C=C/Br		HELF		87.5 µg/mL
Oc1cc(O)c2c(c1)O[C@@H](c1ccc(O)c(O)c1)[C@H](O)C2		Huh-7/3-1		100.4 µg/mL
Cc1[nH]c(=S)nc2c1ncn2CCOCP(=O)(O)O		HB611		200 µM
C[C@H](Cn1cnc2c(N)ncnc21)OCP(=O)(O)O		Primary duck hepatocytes		>100 µM
CC(O)C1(O)C(O)CC(OC2c3cc4c(c(O)c3[C@@H]3C[C@@]2(C)OC32C=c3cc[nH]c3=N2)C(=O)c2cccc(O)c2C4=O)OC1C		VERO		1.9 µg/mL
Nc1nc2ncn(CCOCP(=O)(O)O)c2c(=O)[nH]1		HB611		20 µM

A second listing of 6 rows from above:

{"SMILES": "Oc1cc(O)c2c(c1)O[C@H](c1ccc(O)c(O)c1)[C@H](O)[C@H]2c1c(O)cc(O)c2c1O[C@H](c1ccc(O)c(O)c1)[C@H](O)C2", "cells": "Huh-7/3-1", "result": ">25 µg/mL"}
{"SMILES": "Cc1cc(C)nc(NC(=S)NC(=O)c2ccc(Cl)cc2F)n1", "read by": "MTS", "cells": "MDCK", "result": ">300 µM"}
{"SMILES": "OCCc1ccc(O)c(O[C@@H]2O[C@H](CO)[C@@H](O)[C@H](O)[C@H]2O)c1", "read by": "MTT", "cells": "HL-60", "result": "5.59 µM"}
{"SMILES": "C=C(C)C1CC2=C(O1)C(=O)c1ccccc1C2=O", "cells": "VERO", "result": "0.61 µg/mL"}
{"SMILES": "CCCCc1c(C#N)c(=O)n2c(N)c(C(=O)OCC)cnc2c1SC", "cells": "VERO", "result": "0.05 µg/mL"}
{"SMILES": "CC(=O)OC(C1CC(C)C(=O)O1)C(C)C1C2C3(O)OC4(CCC12C)C(=CCC1C(C)(C)OC2CC(=O)OC21C4O)C3=O", "read by": "MTT", "cells": "HL-60", "result": "2.44 µg/mL"}